{"source": "patent US6423376B1", "about": "“Tartaric acid diesters as biodegradable surfactants” (Air Products and Chemicals, Inc., priority 2000, dated 2002)", "test_system": "biomass seed from a Easton, Pa. Wastewater Treatment Plant", "assay": "Carbonaceous Biological Demand test (CBOD5/CBOD28), ultimate biodegradability", "settings": "for Percent Biodegradation at 5 days, average / Percent Biodegradation at 5 days, Trial 1 / Percent Biodegradation at 5 days, Trial 2 / Percent Biodegradation at 5 days, Trial 3: CBOD5/COD; for Percent Biodegradation at 5 days, average: average of trials 1-3; for Percent Biodegradation at 5 days, Trial 1 / Percent Biodegradation at 5 days, Trial 2 / Percent Biodegradation at 5 days, Trial 3 / Percent Biodegradation at 28 days, Trial 4 / Percent Biodegradation at 28 days, Trial 5 / Percent Biodegradation at 28 days, Trial 6: unacclimatized biomass; for Percent Biodegradation at 5 days, Trial 1 / Percent Biodegradation at 5 days, Trial 2 / Percent Biodegradation at 5 days, Trial 3: below detection limit (<8%) reported as 0; for Percent Biodegradation at 28 days, average / Percent Biodegradation at 28 days, Trial 4 / Percent Biodegradation at 28 days, Trial 5 / Percent Biodegradation at 28 days, Trial 6: CBOD28/COD; for Percent Biodegradation at 28 days, average: average of trials 4-6"}
{"molecule": "CCCCCOC(=O)C(O)C(O)C(=O)OCCCCC", "note": "(racemic) [Example 5, Dipentyl-DL-tartrate]", "values": [{"measurement": "Percent Biodegradation at 5 days, average", "result": 9, "unit": "%"}, {"measurement": "Percent Biodegradation at 5 days, Trial 1", "result": 6, "unit": "%"}, {"measurement": "Percent Biodegradation at 5 days, Trial 2", "result": 6, "unit": "%"}, {"measurement": "Percent Biodegradation at 5 days, Trial 3", "result": 17, "unit": "%"}, {"measurement": "Percent Biodegradation at 28 days, average", "result": 59, "unit": "%"}, {"measurement": "Percent Biodegradation at 28 days, Trial 4", "result": 58, "unit": "%"}, {"measurement": "Percent Biodegradation at 28 days, Trial 5", "result": 63, "unit": "%"}, {"measurement": "Percent Biodegradation at 28 days, Trial 6", "result": 56, "unit": "%"}]}
{"molecule": "CC(C)(C)COC(=O)C(O)C(O)C(=O)OCC(C)(C)C", "note": "(racemic) [Example 8, Dineopentyl-DL-tartrate]", "values": [{"measurement": "biodegradation after 28 days (range over trials)", "setting": "28 days", "result": "8-24%"}, {"measurement": "Percent Biodegradation at 5 days, average", "result": "0^a 0^a 0^a 0%"}, {"measurement": "Percent Biodegradation at 5 days, Trial 1", "result": "0^a 0^a 0^a 0%"}, {"measurement": "Percent Biodegradation at 5 days, Trial 2", "result": "0^a 0^a 0^a 0%"}, {"measurement": "Percent Biodegradation at 5 days, Trial 3", "result": "0^a 0^a 0^a 0%"}, {"measurement": "Percent Biodegradation at 28 days, average", "result": 16, "unit": "%"}, {"measurement": "Percent Biodegradation at 28 days, Trial 4", "result": 15, "unit": "%"}, {"measurement": "Percent Biodegradation at 28 days, Trial 5", "result": 8, "unit": "%"}, {"measurement": "Percent Biodegradation at 28 days, Trial 6", "result": 24, "unit": "%"}]}
{"molecule": "CCC(C)OC(=O)C(O)C(O)C(=O)OC(C)CC", "note": "(racemic) [Example 4, Di-sec-butyl-DL-tartrate]", "values": [{"measurement": "Percent Biodegradation at 5 days, average", "result": "0^a 0^a 0^a 0%"}, {"measurement": "Percent Biodegradation at 5 days, Trial 1", "result": "0^a 0^a 0^a 0%"}, {"measurement": "Percent Biodegradation at 5 days, Trial 2", "result": "0^a 0^a 0^a 0%"}, {"measurement": "Percent Biodegradation at 5 days, Trial 3", "result": "0^a 0^a 0^a 0%"}, {"measurement": "Percent Biodegradation at 28 days, average", "result": 6, "unit": "%"}, {"measurement": "Percent Biodegradation at 28 days, Trial 4", "result": 6, "unit": "%"}, {"measurement": "Percent Biodegradation at 28 days, Trial 5", "result": 5, "unit": "%"}, {"measurement": "Percent Biodegradation at 28 days, Trial 6", "result": 5, "unit": "%"}]}
{"molecule": "CC(C)CCOC(=O)C(O)C(O)C(=O)OCCC(C)C", "note": "(racemic) [Example 6, Diisoamyl-DL-tartrate]", "values": [{"measurement": "Percent Biodegradation at 5 days, average", "result": 13, "unit": "%"}, {"measurement": "Percent Biodegradation at 5 days, Trial 1", "result": 17, "unit": "%"}, {"measurement": "Percent Biodegradation at 5 days, Trial 2", "result": 8, "unit": "%"}, {"measurement": "Percent Biodegradation at 5 days, Trial 3", "result": 13, "unit": "%"}, {"measurement": "Percent Biodegradation at 28 days, average", "result": 58, "unit": "%"}, {"measurement": "Percent Biodegradation at 28 days, Trial 4", "result": 64, "unit": "%"}, {"measurement": "Percent Biodegradation at 28 days, Trial 5", "result": 56, "unit": "%"}, {"measurement": "Percent Biodegradation at 28 days, Trial 6", "result": 53, "unit": "%"}]}
{"molecule": "CCCCC(CC)COC(=O)C(O)C(O)C(=O)OCC(CC)CCCC", "note": "(racemic) [Example 12, Di(2-ethylhexyl)-DL-tartrate]", "values": [{"measurement": "Percent Biodegradation at 5 days, average", "result": 62, "unit": "%"}, {"measurement": "Percent Biodegradation at 5 days, Trial 1", "result": 100, "unit": "%"}, {"measurement": "Percent Biodegradation at 5 days, Trial 2", "result": 27, "unit": "%"}, {"measurement": "Percent Biodegradation at 5 days, Trial 3", "result": 58, "unit": "%"}, {"measurement": "Percent Biodegradation at 28 days, average", "result": "100 100 100 100%"}, {"measurement": "Percent Biodegradation at 28 days, Trial 4", "result": "100 100 100 100%"}, {"measurement": "Percent Biodegradation at 28 days, Trial 5", "result": "100 100 100 100%"}, {"measurement": "Percent Biodegradation at 28 days, Trial 6", "result": "100 100 100 100%"}]}
{"molecule": "CCC(C)COC(=O)C(O)C(O)C(=O)OCC(C)CC", "note": "(racemic) [Example 7, Di(2-methyl-butyl)-DL-tartrate]", "values": [{"measurement": "Percent Biodegradation at 5 days, average", "result": 8, "unit": "%"}, {"measurement": "Percent Biodegradation at 5 days, Trial 1", "result": 17, "unit": "%"}, {"measurement": "Percent Biodegradation at 5 days, Trial 2", "result": 6, "unit": "%"}, {"measurement": "Percent Biodegradation at 5 days, Trial 3", "result": 0, "unit": "%"}, {"measurement": "Percent Biodegradation at 28 days, average", "result": 77, "unit": "%"}, {"measurement": "Percent Biodegradation at 28 days, Trial 4", "result": 63, "unit": "%"}, {"measurement": "Percent Biodegradation at 28 days, Trial 5", "result": 69, "unit": "%"}, {"measurement": "Percent Biodegradation at 28 days, Trial 6", "result": 98, "unit": "%"}]}
{"molecule": "O=C(OCc1ccccc1)C(O)C(O)C(=O)OCc1ccccc1", "note": "(racemic) [Example 11, Dibenzyl-DL-tartrate]", "values": [{"measurement": "Percent Biodegradation at 5 days, average", "result": 28, "unit": "%"}, {"measurement": "Percent Biodegradation at 5 days, Trial 1", "result": 25, "unit": "%"}, {"measurement": "Percent Biodegradation at 5 days, Trial 2", "result": 24, "unit": "%"}, {"measurement": "Percent Biodegradation at 5 days, Trial 3", "result": 34, "unit": "%"}, {"measurement": "Percent Biodegradation at 28 days, average", "result": 56, "unit": "%"}, {"measurement": "Percent Biodegradation at 28 days, Trial 4", "result": 52, "unit": "%"}, {"measurement": "Percent Biodegradation at 28 days, Trial 5", "result": 45, "unit": "%"}, {"measurement": "Percent Biodegradation at 28 days, Trial 6", "result": 80, "unit": "%"}]}
{"molecule": "CCCCCCOC(=O)C(O)C(O)C(=O)OCCCCCC", "note": "(racemic) [Example 9, Dihexyl-DL-tartrate]", "values": [{"measurement": "Percent Biodegradation at 5 days, average", "result": 15, "unit": "%"}, {"measurement": "Percent Biodegradation at 5 days, Trial 1", "result": 0, "unit": "%"}, {"measurement": "Percent Biodegradation at 5 days, Trial 2", "result": 21, "unit": "%"}, {"measurement": "Percent Biodegradation at 5 days, Trial 3", "result": 22, "unit": "%"}, {"measurement": "Percent Biodegradation at 28 days, average", "result": 87, "unit": "%"}, {"measurement": "Percent Biodegradation at 28 days, Trial 4", "result": 93, "unit": "%"}, {"measurement": "Percent Biodegradation at 28 days, Trial 5", "result": 69, "unit": "%"}, {"measurement": "Percent Biodegradation at 28 days, Trial 6", "result": 100, "unit": "%"}]}
{"molecule": "CC(C)CC(C)OC(=O)C(O)C(O)C(=O)OC(C)CC(C)C", "note": "(racemic) [Example 10, Di(4-methyl-2-pentyl)-DL-tartrate]", "values": [{"measurement": "Percent Biodegradation at 5 days, average", "result": "0^a 0^a 0^a 0%"}, {"measurement": "Percent Biodegradation at 5 days, Trial 1", "result": "0^a 0^a 0^a 0%"}, {"measurement": "Percent Biodegradation at 5 days, Trial 2", "result": "0^a 0^a 0^a 0%"}, {"measurement": "Percent Biodegradation at 5 days, Trial 3", "result": "0^a 0^a 0^a 0%"}, {"measurement": "Percent Biodegradation at 28 days, average", "result": 10, "unit": "%"}, {"measurement": "Percent Biodegradation at 28 days, Trial 4", "result": 10, "unit": "%"}, {"measurement": "Percent Biodegradation at 28 days, Trial 5", "result": 11, "unit": "%"}, {"measurement": "Percent Biodegradation at 28 days, Trial 6", "result": 9, "unit": "%"}]}
{"molecule": "CC(C)COC(=O)C(O)C(O)C(=O)OCC(C)C", "note": "(racemic) [Example 3, Diisobutyl-DL-tartrate]", "values": [{"measurement": "Percent Biodegradation at 5 days, average", "result": 3, "unit": "%"}, {"measurement": "Percent Biodegradation at 5 days, Trial 1", "result": 3, "unit": "%"}, {"measurement": "Percent Biodegradation at 5 days, Trial 2", "result": 0, "unit": "%"}, {"measurement": "Percent Biodegradation at 5 days, Trial 3", "result": 6, "unit": "%"}, {"measurement": "Percent Biodegradation at 28 days, average", "result": 30, "unit": "%"}, {"measurement": "Percent Biodegradation at 28 days, Trial 4", "result": 6, "unit": "%"}, {"measurement": "Percent Biodegradation at 28 days, Trial 5", "result": 43, "unit": "%"}, {"measurement": "Percent Biodegradation at 28 days, Trial 6", "result": 22, "unit": "%"}]}
